The text below walks through data of patent US20150174265A1, “REVERSIBLE MASKING OF PORE-FORMING PROTEINS FOR MACROMOLECULAR DELIVERY” (MIT, published 2015).

A word on the Kd: it is the constant that tells how readily two partners part at equilibrium.

Experiment [1] concerns the target T1, PFO containing an N-terminal avi tag (Clostridium perfringens). Description: yeast-surface titration against PFO (wild-type).
In experiment [2] the target is T1, PFO containing an N-terminal avi tag. Description: yeast-surface titration against PFO (wild-type), pH 5.5.
Experiment [3] shares this target. The experiment in a line: yeast-surface titration against PFO (wild-type), pH 7.4.
The target is the same in experiment [4]. Description: yeast surface titration with avi-tagged PFO, flow cytometry. (In flow cytometry, cells or beads pass a laser one at a time.)
Experiment [5] has the same target. Description: yeast surface titration with avi-tagged PFO, flow cytometry, pH 5.5, curve-fit.
For experiment [6] the target is unchanged. The experiment in a line: yeast surface titration with avi-tagged PFO, flow cytometry, pH 7.4, curve-fit.

B1: Clone 2.2.12F (designed binder)
chain: ASASDVPRDLEVVAATPTSLLISWRFPAYRGVDSYRITYGETGGNSPVQEFTVPSSVSSATISGLKPGVDYTITVYAVTWCSFYYCHSRPTSINYRTEIDKPSQGS
As for B1, the “fold higher affinity at pH 7.4 compared to pH 5.5” value in experiment [1] was determined as 10 fold. In addition, in experiment [2], the Kd stood at 5.7 nM and the “fold higher binding affinity than clone 2.2.12” value was ~23 fold. In experiment [3], the Kd is 0.51 nM and the “fold higher binding affinity than clone 2.2.12” value was ~25 fold.

B2: Clone 2.2-12 (designed binder)
chain: ASDVPRDLEVVAATPTSLLISWRFPAYWGADSYRITYGETGGNSPVQEFTVPSSVSSATISGLKPGVDYTITVYAVTWCGFYYCHSRPTSINYRTEIDKPSQ
As to B2, the “fold difference of KD between pH 7.4 and pH 5.5” value in experiment [4] worked out at 10 fold.

B3: Clone 2.2-7 (designed binder)
chain: VSDVPRDLEVVAATPTSLLISWFNPHSCSYRITYGETGGNSPVQEFTVPASSTATISGLKPGVDYTITVYAVTWRCYSVPISINYRTEVDKPSQ
Regarding B3, the values for the Kd in experiment [5] and in experiment [6] were 108 nM and 6.7 nM, respectively.
